From doi:10.1101/2025.11.04.686469, “Discovery of Host-Directed Small Molecules with Broad Anti-Leishmanial Efficacy” (bioRxiv, 2025)

The compounds below were run on intracellular L. mexicana amastigotes (assay: not given). Conditions: 72hr LC50 / Giemsa IC50, L. mexicana.
Format: cell-based, Leishmania mexicana
Protocol: (§1) Bone marrow derived macrophages (BMDMs) were isolated from BALB/c mice and cultured as previously described. Briefly, bone marrow was harvested from long bones of mice and the isolated cells were seeded at a concentration of 2 x 10^6 cells/mL in petri dishes with RPMI media supplemented with 10% FBS, 1% Penn-Strep and 10% L929 conditioned media (LCM). Completely differentiated BMDMs are obtained after 7 days of culture with media change every 2 days. Harvested cells were seeded onto 10 mm glass cover slips at 5 x 10^5 cells/ well of a 24 well plate in DMEM media (without LCM) and allowed to adhere overnight. BMDM cells are then infected overnight with LV82 L. donovani or L. mexicana (NR-51210) at a multiplicity of infection of 10. After infection, cells were washed three times with fresh media to remove extracellular promastigotes and treated with compounds for a 72-hour incubation. BMDM cells were then washed with phosphate buffered saline, fixed with ice-cold methanol, and stained with Giemsa (5% v/v in water). The cover slips with stained cells are mounted onto glass slides and imaged on EVOS XL (100X, Thermo Fisher Scientific). Leishmania amastigotes per 100 macrophages were determined in a blinded manner.

`N#Cc1cccc(CN2CCC(Nc3ccc(-n4nc(C(F)(F)F)cc4-c4ccc(-c5ccc(C(F)(F)F)cc5)cc4)cc3)C2)c1` (centres unmarked) [Compound 53] was tested, and the “L. mexicana Therapeutic Index LC50 / IC50” value was over 428.
`O=C(CNCc1cccc(F)c1)Nc1ccc(-n2cc(C(F)(F)F)nc2-c2ccc(-c3ccc(C(F)(F)F)cc3)cc2)cc1` [Compound 197] was tested, and the “L. mexicana Therapeutic Index LC50 / IC50” value was over 176.

`N#Cc1ccc(CNCC(=O)Nc2ccc(-n3nc(C(F)(F)F)cc3C3CCCCC3)cc2)cc1` [Compound 354] was tested, and the “L. mexicana Therapeutic Index LC50 / IC50” value was 6.

What follows are compounds tested on intracellular L. donovani amastigotes (assay: Luminescent-based evaluation of intracellular anti-leishmanial activity in THP-1 macrophages). Conditions: 24h LC50 / Lum IC50 (Supplemental Table 2).
Format: cell-based, Leishmania donovani
Protocol: Luminescent strains, L. donovani LV82 expressing firefly luciferase (a kind gift from Dr. Abhay Satoskar, Ohio State University) and L. mexicana (NR-51210, ATCC) expressing renilla luciferase were used to evaluate the effect of the compounds in intracellular and extracellular conditions. Wild-type L. donovani LV82 (ATCC) were used for Giemsa staining based experiments. All parasites were cultured at 25°C and 5% CO2 in M199 media (Corning) supplemented with 10% FBS, 1% penicillin/streptomycin, and hemin (0.01 mg/mL), and used in experiments up to passage 15.
THP-1 cells were seeded in a 96 well plate (25,000 cells/well) overnight then differentiated with 150 nM phorbol 12-myristate 13-acetate (PMA) over 72 hours (Supplemental Figure 1). […] Briefly, promastigotes of a known cell density were resuspended in RPMI media (with 10% FBS, 1% P/S and 0.05 mM β-mercaptoethanol) and incubated with adhered THP-1 cells over 18 hours. After infection, cells were washed three times with fresh media to remove extracellular promastigotes.
Infected macrophages were then treated with compounds solubilized in DMSO ranging from 0.1-10 μM in concentrations. After 72 hours of treatment, the viability of the amastigotes within macrophages was determined using Promega firefly luminescence assay (Cat E1500) or Pierce Renilla luciferase assay (Cat 16166) for L. donovani and L. mexicana strains, respectively. Briefly, media was removed, and cells were lysed with the assay lysis buffer. The luciferase substrate was then incubated with the lysed cells for 10 min at room temperature and luminescence of live Leishmania was measured in a white opaque 96 well plate using a Biotek plate reader.

`Oc1ccc(-n2nc(C(F)(F)F)cc2C2CCCCC2)cc1` [Compound 366] showed a Selectivity of under 3.3.
`FC(F)(F)c1cc(C2CCCCC2)n(-c2ccc(OC3CCN(Cc4ccccc4)CC3)cc2)n1` [Compound 371] gave a Selectivity of over 5.6.
Work on `N#Cc1ccc(CN2CCC(Oc3ccc(-n4nc(C(F)(F)F)cc4C4CCCCC4)cc3)CC2)cc1` [Compound 373] yielded a Selectivity of over 7.2.
In the case of `CC(=O)NCCCOc1ccc(CN2CCC(Oc3ccc(-n4nc(C(F)(F)F)cc4C4CCCCC4)cc3)CC2)cc1` [Compound 430], the Selectivity is reported as under 1.6.
`Cl.FC(F)(F)c1ccc(-c2cnnn2-c2ccc(NC3CCNCC3)cc2)cc1` [Compound 434] gave a Selectivity of under 2.5.

First: Oc1ccc(CN2CCC(Nc3ccc(-n4nc(C(F)(F)F)cc4C4CCCCC4)cc3)C2)cc1 (centres unmarked) [Compound 368]
Second: Oc1ccc(CN2CCC(Nc3ccc(-n4nc(C(F)(F)F)cc4C4CCCCC4)cc3)CC2)cc1 [Compound 392]
The Selectivity of the first is higher: 7.6 for the first, 5.5 for the second.

Compared with `FC(F)(F)c1cc(C2CCCCC2)n(-c2ccc(OC3CCNCC3)cc2)n1` [Compound 370], `FC(F)(F)c1cc(C2CCCCC2)n(-c2ccc(OC3CCNC3)cc2)n1` (centres unmarked) [Compound 375] is lower in Selectivity: 7.5 for the first, 1.9 for the second.

First: Oc1ccc(CN2CCC(Oc3ccc(-n4nc(C(F)(F)F)cc4C4CCCCC4)cc3)CC2)cc1 [Compound 374]
Second: Oc1ccc(CN2CCC(Oc3ccc(-n4nc(C(F)(F)F)cc4C4CCCCC4)cc3)C2)cc1 (centres unmarked) [Compound 377]
The Selectivity of the first is higher: 2.6 for the first, 1.8 for the second.

Going from `FC(F)(F)c1cc(C2CCCCC2)n(-c2ccc(NC3CCN(Cc4ccccc4)CC3)cc2)n1` [Compound 381] to `FC(F)(F)c1cc(C2CCCCC2)n(-c2ccc(NC3CN(Cc4ccccc4)C3)cc2)n1` [Compound 395], the Selectivity rises from 2.0 to 4.9.

Going from `FC(F)(F)c1cc(C2CCCCC2)n(-c2ccc(NC3CNC3)cc2)n1` [Compound 394] to `Fc1cccc(CN2CC(Nc3ccc(-n4nc(C(F)(F)F)cc4C4CCCCC4)cc3)C2)c1` [Compound 396], the Selectivity falls from 5.6 to 3.8.

Compared with `N#Cc1ccc(CN2CC(Nc3ccc(-n4nc(C(F)(F)F)cc4C4CCCCC4)cc3)C2)cc1` [Compound 397], `Cl.Cl.NCCCOc1ccc(CN2CCC(Oc3ccc(-n4nc(C(F)(F)F)cc4C4CCCCC4)cc3)CC2)cc1` [Compound 429] is higher in Selectivity: 3.4 for the first, 5.1 for the second.

Compared with `NCC(=O)Nc1ccc(-n2cc(C(F)(F)F)nc2-c2ccc(C(F)(F)F)cc2)cc1` [Compound 409], `Cl.Cl.NCCCCCOc1ccc(CN2CCC(Oc3ccc(-n4nc(C(F)(F)F)cc4C4CCCCC4)cc3)CC2)cc1` [Compound 432] is lower in Selectivity: 4.0 for the first, 2.0 for the second.

Compared with `NCCN1CCC(Oc2ccc(-n3nc(C(F)(F)F)cc3C3CCCCC3)cc2)CC1` [Compound 416], `Cl.Cl.NCCCN1CCC(Oc2ccc(-n3nc(C(F)(F)F)cc3C3CCCCC3)cc2)CC1` [Compound 425] is lower in Selectivity: 14.2 for the first, 2.5 for the second.

Going from `CC(=O)NCCN1CCC(Oc2ccc(-n3nc(C(F)(F)F)cc3C3CCCCC3)cc2)CC1` [Compound 417] to `CC(=O)NCCCN1CCC(Oc2ccc(-n3nc(C(F)(F)F)cc3C3CCCCC3)cc2)CC1` [Compound 428], the Selectivity falls from 8.1 to 1.3.

Going from `NCCNC1CCN(c2ccc(-n3nc(C(F)(F)F)cc3C3CCCCC3)cc2)CC1` [Compound 418] to `NCCCNC1CCN(c2ccc(-n3nc(C(F)(F)F)cc3C3CCCCC3)cc2)CC1` [Compound 420], the Selectivity rises from 4.2 to 6.7.

Compared with `CC(=O)NCCNC1CCN(c2ccc(-n3nc(C(F)(F)F)cc3C3CCCCC3)cc2)CC1` [Compound 419], `CC(=O)NCCCNC1CCN(c2ccc(-n3nc(C(F)(F)F)cc3C3CCCCC3)cc2)CC1` [Compound 421] is higher in Selectivity: 7.9 for the first, 12.5 for the second.

First: Cl.Cl.NCCCCCN1CCC(Oc2ccc(-n3nc(C(F)(F)F)cc3C3CCCCC3)cc2)CC1 [Compound 422]
Second: Cl.Cl.NCCCCN1CCC(Oc2ccc(-n3nc(C(F)(F)F)cc3C3CCCCC3)cc2)CC1 [Compound 424]
The Selectivity of the first is lower: 2.4 for the first, 2.7 for the second.

Going from `Cl.Cl.NCCOCCN1CCC(Oc2ccc(-n3nc(C(F)(F)F)cc3C3CCCCC3)cc2)CC1` [Compound 423] to `CC(=O)NCCOCCN1CCC(Oc2ccc(-n3nc(C(F)(F)F)cc3C3CCCCC3)cc2)CC1` [Compound 427], the Selectivity rises from 0.6 to 4.8.

In the case of `CC(=O)NCCCCCN1CCC(Oc2ccc(-n3nc(C(F)(F)F)cc3C3CCCCC3)cc2)CC1` [Compound 431], the Selectivity is reported as 4.7.

Same assay, conditions: host-directed effect vs cytotoxicity

Compared with `Nc1ccc(CNC2CCN(c3ccc(-n4nc(C(F)(F)F)cc4-c4ccc(-c5ccc(C(F)(F)F)cc5)cc4)cc3)C2)cc1` (centres unmarked) [Compound 23], `FC(F)(F)c1ccc(-c2ccc(-c3cc(C(F)(F)F)nn3-c3ccc(NC4CCNC4)cc3)cc2)cc1` (centres unmarked) [Compound 25] is higher in “Selectivity 24h LC50 / Lum IC50” value: 14.8 for the first, 43.8 for the second.

First: CC(C)(C)C#Cc1ccc(-c2cc(C(F)(F)F)nn2-c2ccc(N3CCNCC3)cc2)cc1.Cl [Compound 44]
Second: CC(C)(C)OC(=O)NC1CCN(c2ccc(-n3nncc3-c3ccc(C(F)(F)F)cc3)cc2)C1 (centres unmarked) [Compound 133]
The “Selectivity 24h LC50 / Lum IC50” value of the first is lower: 8.1 for the first, 32.5 for the second.

`NCC(=O)Nc1ccc(-n2cc(C(F)(F)F)nc2-c2ccc(-c3ccccc3)cc2)cc1` [Compound 50] and `O=C(Nc1ccc(-n2cc(C(F)(F)F)nc2-c2ccc(-c3ccccc3)cc2)cc1)C1CCN(Cc2ccccc2)C1` (centres unmarked) [Compound 86] are the same in “Selectivity 24h LC50 / Lum IC50” value: 16.0 for the first, 16.0 for the second.

Compared with `Oc1ccc(CNC2CCN(c3ccc(-n4nc(C(F)(F)F)cc4C4CCCCC4)cc3)CC2)cc1` [Compound 319], `FC(F)(F)c1ccc(-c2nc(C(F)(F)F)cn2-c2ccc(NC3CCNCC3)cc2)cc1` [Compound 408] is higher in “Selectivity 24h LC50 / Lum IC50” value: 8.1 for the first, 17.0 for the second.

In the case of `Oc1ccccc1CN1CCC(Nc2ccc(-n3nc(C(F)(F)F)cc3-c3ccc(-c4ccc(C(F)(F)F)cc4)cc3)cc2)C1` (centres unmarked) [Compound 91], the “Selectivity 24h LC50 / Lum IC50” value is reported as over 36.1.

Each compound was assayed on intracellular L. donovani amastigotes (assay: Image-based (Giemsa staining) evaluation of intracellular anti-leishmanial activity in bone marrow derived macrophages). Conditions: 72hr LC50 / Giemsa IC50, L. donovani.
Format: cell-based, Leishmania donovani
Protocol: as §1, with “Briefly, bone marrow was harvested from long bones of mice and the isolated cells were seeded at a concentration of 2 x 10^6 cells/mL in petri dishes with RPMI media supplemented with 10% FBS, 1% Penn-Strep and 10% L929 conditioned media (LCM).” left out, “BMDM cells are then infected overnight with LV82 L. donovani or L. mexicana (NR-51210) at a multiplicity of infection of 10.” left out

Going from `Nc1ccc(CNC2CCN(c3ccc(-n4nc(C(F)(F)F)cc4-c4ccc(-c5ccc(C(F)(F)F)cc5)cc4)cc3)C2)cc1` (centres unmarked) [Compound 23] to `Oc1ccccc1CN1CCC(Nc2ccc(-n3nc(C(F)(F)F)cc3-c3ccc(-c4ccc(C(F)(F)F)cc4)cc3)cc2)C1` (centres unmarked) [Compound 91], the “Therapeutic Index LC50 / IC50” value rises from 8 to 22.

Going from `FC(F)(F)c1ccc(-c2ccc(-c3cc(C(F)(F)F)nn3-c3ccc(NC4CCNC4)cc3)cc2)cc1` (centres unmarked) [Compound 25] to `FC(F)(F)c1ccc(-c2nc(C(F)(F)F)cn2-c2ccc(NC3CCNCC3)cc2)cc1` [Compound 408], the “Therapeutic Index LC50 / IC50” value rises from 2 to 10.

Going from `CC(C)(C)C#Cc1ccc(-c2cc(C(F)(F)F)nn2-c2ccc(N3CCNCC3)cc2)cc1.Cl` [Compound 44] to `CC(C)(C)OC(=O)NC1CCN(c2ccc(-n3nncc3-c3ccc(C(F)(F)F)cc3)cc2)C1` (centres unmarked) [Compound 133], the “Therapeutic Index LC50 / IC50” value rises from 14 to 20.

Compared with `NCC(=O)Nc1ccc(-n2cc(C(F)(F)F)nc2-c2ccc(-c3ccccc3)cc2)cc1` [Compound 50], `O=C(Nc1ccc(-n2cc(C(F)(F)F)nc2-c2ccc(-c3ccccc3)cc2)cc1)C1CCN(Cc2ccccc2)C1` (centres unmarked) [Compound 86] is higher in “Therapeutic Index LC50 / IC50” value: 5 for the first, 14 for the second.

In the case of `Oc1ccc(CNC2CCN(c3ccc(-n4nc(C(F)(F)F)cc4C4CCCCC4)cc3)CC2)cc1` [Compound 319], the “Therapeutic Index LC50 / IC50” value is reported as 2.

Same assay, conditions: Table 3

`N#Cc1cccc(CN2CCC(Nc3ccc(-n4nc(C(F)(F)F)cc4-c4ccc(-c5ccc(C(F)(F)F)cc5)cc4)cc3)C2)c1` (centres unmarked) [Compound 53] was tested, and the “L. donovani Therapeutic Index LC50 / IC50” value was over 273.
In the case of `O=C(CNCc1cccc(F)c1)Nc1ccc(-n2cc(C(F)(F)F)nc2-c2ccc(-c3ccc(C(F)(F)F)cc3)cc2)cc1` [Compound 197], the “L. donovani Therapeutic Index LC50 / IC50” value is reported as over 273.

`N#Cc1ccc(CNCC(=O)Nc2ccc(-n3nc(C(F)(F)F)cc3C3CCCCC3)cc2)cc1` [Compound 354] was tested, and the “L. donovani Therapeutic Index LC50 / IC50” value was 51.
